Reference: patent publication US6444787B1 (Research Development Institute, Inc., priority 1997, dated 2002)

Assay: peptide made by a vendor (Fmoc solid-phase peptide synthesis)
Conditions: whole synthesis, HPLC and mass spectrometer analysis

Question: For FDTGAFDPDWPAC, which “purity (crude or final not stated)” value is on record?
Answer: Its value is >70%.

Ends that are not written are not given here.
